Results deposited as PubChem BioAssay AID624099 (ICCB-Longwood, 2012).
Here is one part, drawn at random, of about 21,000 reagents. Over the whole deposit, 497 (2.4%) are marked active. 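Higher z means weaker E2 silencing; only reporter increases were scored, and knock-downs that hurt cell survival may mask genuine repressor factors.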 The numbers tell different reagents against one gene apart.

Purpose: 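Human genes that papillomavirus E2 requires to repress the HPV18 LCR promoter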 (primary screen)
Cells: human C33A cervical carcinoma cells (HPV-negative) stably expressing BPV1 E2 and an HPV18 LCR luciferase reporter
Knock-down reagent: siRNA pool against human genes, 40 nM
Time to read-out: 72 h
Measurement: 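Per-well luciferase luminescence, z-scored on each plate against the plate mean and SD with control wells left out, then averaged across three replicate plates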
Reading the numbers: mean z-score and z-score: higher = stronger reporter signal, weaker E2 silencing
Active means: 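Hit if mean z-score reaches 2 and two or more of three replicate z-scores also reach 2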

ABCB4 (ATP binding cassette subfamily B member 4) scored mean z-score 0.95; z-score, replicate A = 0.75; z-score, replicate B = 0.9; z-score, replicate C = 1.21; inactive.
TMEM238L (transmembrane protein 238 like) gave mean z-score 0.7; z-score, replicate A = 0.74; z-score, replicate B = 0.72; z-score, replicate C = 0.65; inactive.
Knock-down of DCC (DCC netrin 1 receptor) gave: mean z-score -0.54; z-score, replicate A = -0.55; z-score, replicate B = -0.48; z-score, replicate C = -0.6; inactive.
CTAGE1 (cutaneous T cell lymphoma-associated antigen 1) #1 showed mean z-score 1.03; z-score, replicate A = 0.94; z-score, replicate B = 0.82; z-score, replicate C = 1.32; inactive.
Against CTAGE1 (cutaneous T cell lymphoma-associated antigen 1) #2, the entry reads mean z-score 0.85; z-score, replicate A = 0.78; z-score, replicate B = 1.08; z-score, replicate C = 0.68; inactive.
LOC390669 (retired record) showed mean z-score -0.74; z-score, replicate A = -0.75; z-score, replicate B = -0.84; z-score, replicate C = -0.62; inactive.
EIF2B5 (eukaryotic translation initiation factor 2B subunit epsilon) gave mean z-score 0.06; z-score, replicate A = 0.01; z-score, replicate B = 0.15; z-score, replicate C = 0; inactive.
Knock-down of PCNT (pericentrin) gave: mean z-score 0.99; z-score, replicate A = 1.15; z-score, replicate B = 0.99; z-score, replicate C = 0.82; inactive.
KDM2A (lysine demethylase 2A) scored mean z-score -0.65; z-score, replicate A = -0.41; z-score, replicate B = -0.6; z-score, replicate C = -0.93; inactive.
Silencing of GDF9 (growth differentiation factor 9) came out at: mean z-score 0.15; z-score, replicate A = 0.03; z-score, replicate B = 0.19; z-score, replicate C = 0.22; inactive.
For AMZ2 (archaelysin family metallopeptidase 2) the deposit lists mean z-score -0.04; z-score, replicate A = 0.12; z-score, replicate B = -0.18; z-score, replicate C = -0.05; inactive.
After knock-down of ZNF366 (zinc finger protein 366), the screen gave mean z-score 1.11; z-score, replicate A = 1.35; z-score, replicate B = 0.97; z-score, replicate C = 1.02; inactive.
NAA16 (N-alpha-acetyltransferase 16, NatA auxiliary subunit) scored mean z-score -0.13; z-score, replicate A = -0.52; z-score, replicate B = -0.52; z-score, replicate C = 0.65; inactive.
For USP37 (ubiquitin specific peptidase 37), the values are mean z-score -1.48; z-score, replicate A = -1.52; z-score, replicate B = -1.42; z-score, replicate C = -1.5; inactive.
For PTHLH (parathyroid hormone like hormone), the entry reads mean z-score 0.01; z-score, replicate A = 0.06; z-score, replicate B = -0.25; z-score, replicate C = 0.22; inactive.
With knock-down of USP32P2 (ubiquitin specific peptidase 32 pseudogene 2), the record shows mean z-score -0.93; z-score, replicate A = -1.19; z-score, replicate B = -0.72; z-score, replicate C = -0.88; inactive.
FGFRL1 (fibroblast growth factor receptor like 1) gave mean z-score -1.88; z-score, replicate A = -1.66; z-score, replicate B = -2.09; z-score, replicate C = -1.87; inactive.
For EED (embryonic ectoderm development), the values are mean z-score 0.05; z-score, replicate A = 0; z-score, replicate B = -0.02; z-score, replicate C = 0.15; inactive.
After knock-down of THOC1 (THO complex subunit 1) the results were mean z-score -0.95; z-score, replicate A = -0.84; z-score, replicate B = -0.99; z-score, replicate C = -1.01; inactive.
Knock-down of MKS1 (MKS transition zone complex subunit 1) gave: mean z-score 0.01; z-score, replicate A = -0.06; z-score, replicate B = -0.48; z-score, replicate C = 0.57; inactive.
PLEKHA7 (pleckstrin homology domain containing A7) scored mean z-score 0.11; z-score, replicate A = 0.72; z-score, replicate B = 0.01; z-score, replicate C = -0.4; inactive.
Silencing of RABIF (RAB interacting factor) gave: mean z-score 0.02; z-score, replicate A = 0.2; z-score, replicate B = -0.05; z-score, replicate C = -0.1; inactive.
For LINC00471 (long independently transcribed non-coding RNA 471), the values are mean z-score 0.72; z-score, replicate A = 0.7; z-score, replicate B = 0.5; z-score, replicate C = 0.96; inactive.
Knock-down of WASH5P (WASP family homolog 5, pseudogene) came out at: mean z-score -0.32; z-score, replicate A = 0; z-score, replicate B = -0.4; z-score, replicate C = -0.57; inactive.
MOCS1 (molybdenum cofactor synthesis 1) gave mean z-score 0.04; z-score, replicate A = -0.47; z-score, replicate B = 0.07; z-score, replicate C = 0.52; inactive.
For BTN2A1 (butyrophilin subfamily 2 member A1), the values are mean z-score 0.32; z-score, replicate A = 0.67; z-score, replicate B = -0.06; z-score, replicate C = 0.35; inactive.
After knock-down of AHCYL2 (adenosylhomocysteinase like 2), the screen gave mean z-score -0.36; z-score, replicate A = -0.07; z-score, replicate B = -0.29; z-score, replicate C = -0.72; inactive.

Entries listed so far whose gene name starts with M or m:
MKS1 (MKS transition zone complex subunit 1) — mean z-score: 0.01; z-score, replicate A: -0.06; z-score, replicate B: -0.48; z-score, replicate C: 0.57; activity call: inactive
MOCS1 (molybdenum cofactor synthesis 1) — mean z-score: 0.04; z-score, replicate A: -0.47; z-score, replicate B: 0.07; z-score, replicate C: 0.52; activity call: inactive
